A mixed list of measured activities; the numbers were collected in NIAID ChemDB.

All rows: host cell toxicity; cell line: PBL; endpoint: CC50

CCn is the concentration with n% toxicity to the cells. Neighbouring rows are from separate reports. Blank or dashed fields: not listed here.

compound	read by	value
CC(C)C[C@H](NC(=O)[C@@H](NC(=O)[C@@H](N)CC(C)C)[C@@H](C)O)C(=O)N[C@@H](CC(N)=O)C(=O)N[C@@H](Cc1ccccc1)C(=O)O		>200 µg/mL
CC(C)c1nc(Oc2ccc(S(C)(=O)=O)cc2)ccc1CN1CCC(N2C(=O)N(c3cc(C(N)=O)c(F)cc3F)C[C@H]2c2ccccc2)CC1		1.6 nM
O=c1cc(CCl)nc2c3ncn([C@@H]4O[C@H](COP(=O)(O)O)[C@@H](O)[C@H]4O)c3ncn12		150 µM
O=C(c1c(O)cc(O)cc1O)c1c(-c2ccc(O)cc2)oc2cc(O)c3c(c12)O[C@H](c1ccc(O)cc1)CC3		74 µg/mL
Nc1nc(N)c2ncn(OCCCCP(=O)(O)O)c2n1	MTT	>100 µM
Cc1nc(Oc2ccc(S(C)(=O)=O)cc2)ccc1CN1CCC(N2C(=O)N(c3cc(C(N)=O)c(F)cc3F)C[C@H]2c2ccccc2)CC1		1 nM
O=c1cc(CCl)nc2c3ncn([C@H]4C[C@H](O)[C@@H](COP(=O)(O)O)O4)c3ncn12		15 µM
O=C(c1c(O)cc(O)cc1O)c1c(-c2ccc(O)cc2)oc2cc(O)c3c(c12)O[C@H](c1ccc(O)cc1)[C@@H](O)C3		67 µg/mL
CC(=O)N[C@@H](CC(C)C)C(=O)N[C@H](C(=O)N[C@@H](CC(C)C)C(=O)N[C@@H](CC(N)=O)C(=O)N[C@@H](Cc1ccccc1)C(=O)O)[C@@H](C)O		>200 µg/mL
CC[C@@]1(O)C(=O)OCc2c1cc1n(c2=O)Cc2cc3c([N+](=O)[O-])cccc3nc2-1		>0.03 µM
CC(O)Cn1cnc2cnc(N)nc21		>100 µM
CC(C)C[C@H](NC(=O)[C@@H](N)[C@@H](C)O)C(=O)N[C@@H](CC(N)=O)C(=O)N[C@@H](Cc1ccccc1)C(N)=O		>200 µg/mL
Nc1ncc2ncn(CCO)c2n1		>100 µM
CCCCC#CCSc1ccccc1OC(C)=O	MTT	147 µM
C[C@H]1[C@H](O)[C@@H](C)/C=C/C=C/C=C/C=C/C=C/C=C/C=C/[C@H](O[C@@H]2O[C@H](C)[C@@H](O)[C@H](N)[C@@H]2O)C[C@@H]2O[C@](O)(C[C@@H](O)C[C@@H](O)CC[C@H](O)[C@@H](O)C[C@@H](O)CC(=O)O[C@H]1C)C[C@H](O)[C@H]2C(=O)O	MTT	>10 µM
O=c1cc(CCl)nc2c3ncn([C@@H]4O[C@H](CO)[C@@H](O)[C@H]4O)c3ncn12		15 µM

The last 2 rows once more:

compound,read by,value
C[C@H]1[C@H](O)[C@@H](C)/C=C/C=C/C=C/C=C/C=C/C=C/C=C/[C@H](O[C@@H]2O[C@H](C)[C@@H](O)[C@H](N)[C@@H]2O)C[C@@H]2O[C@](O)(C[C@@H](O)C[C@@H](O)CC[C@H](O)[C@@H](O)C[C@@H](O)CC(=O)O[C@H]1C)C[C@H](O)[C@H]2C(=O)O,MTT,>10 µM
O=c1cc(CCl)nc2c3ncn([C@@H]4O[C@H](CO)[C@@H](O)[C@H]4O)c3ncn12,,15 µM